Anti-infective test results gathered from many reports (values: NIAID ChemDB through PubChem).

Shared fields: tests in culture; agent: HIV-1

Blank or dashed fields: not listed here. a–b is a range or a potency band. Lines come from different laboratories, so protocols vary. ECn is the concentration giving n% inhibition of infection, replication or growth.

SMILES,strain or isolate,changes,cells,measure,read by,result
CC(C)(C)NC(=O)[C@@H]1CN(Cc2nc3ccccc3[nH]2)CCN1C[C@@H](O)C[C@@H](Cc1ccccc1)C(=O)N[C@H]1c2ccccc2C[C@H]1O,IIIB,-,MT-4,EC50,p24,<0.2 µM
C1=Cc2nc1c(-c1ccc(-n3cccc3)cc1)c1ccc([nH]1)c(-c1ccc(-n3cccc3)cc1)c1nc(c(-c3ccc(-n4cccc4)cc3)c3ccc([nH]3)c2-c2ccc(-n3cccc3)cc2)C=C1,LAV,-,PBMC,EC50,RT activity,7.3 µM
S=C(NCCc1ccccn1)Nc1ccc(Br)cn1,IIIB,-,PBMC,EC50,-,0.007 µM
CCCOP(=O)(OC[C@H]1O[C@@H](n2cc(C)c(=O)[nH]c2=O)C[C@@H]1N=[N+]=[N-])C(N)=O,GKV-4046,-,MT-4,EC90,p24,0.0288 µM
C=C1[C@H](CO)[C@@H](O)C[C@@H]1n1cnc2c(=O)[nH]c(N)nc21,IIIB,F227L and V106A,MT-4,EC50,MTT,0.014 µM
COc1ccccc1-c1c2nc(c(-c3ccccc3OC)c3ccc([nH]3)c(-c3ccccc3OC)c3nc(c(-c4ccccc4OC)c4ccc1[nH]4)C=C3)C=C2,LAV,-,PBMC,EC50,RT activity,41.1 µM
O=C(O)P(=O)(O)O,HXB2,TAM1 (M41L D67N L210W T215Y),MT-2,EC50,-,7.9 µM
Nc1ncnc2c1ncn2[C@H]1CC[C@@H](CO)O1,LAV,-,C3,EC90,p24,29 µM
C#Cc1ccc(Nc2nccc(Oc3c(C)cc(-c4cn(Cc5ccc(O)cc5)nn4)cc3C)n2)cc1,IIIB,Y181C,MT-4,EC50,MTT,0.53 µM
Oc1ccccc1-c1c2nc(c(-c3ccccc3O)c3ccc([nH]3)c(-c3ccccc3O)c3nc(c(-c4ccccc4O)c4ccc1[nH]4)C=C3)C=C2,LAV,-,PBMC,EC50,RT activity,3.1 µM
CC(C)(C)NC(=O)[C@@H]1CN(Cc2cc3cccnc3o2)CCN1C[C@@H](O)C[C@@H](Cc1ccccc1)C(=O)N[C@H]1c2ccccc2C[C@H]1O,IIIB,-,MT-4,EC50,p24,<0.05 µM
Cc1cn([C@H]2C[C@H](N=[N+]=[N-])[C@@H](COC(=O)CC[C@@H](C)[C@H]3CC[C@H]4[C@@H]5C(=O)C[C@@H]6CC(=O)CC[C@]6(C)[C@H]5CC(=O)[C@]34C)O2)c(=O)[nH]c1=O,-,-,CEM + CME-SS,EC50,cytopathic effect / XTT,0.31 µM
S=C(NCCC1=CCCCC1)Nc1ccc(Br)cn1,A17,RT-K103N Y181C,PBMC,EC50,-,18.7 µM
N#Cc1cn([C@H]2CC[C@@H](CO)O2)c2ncnc(N)c12,IIIB,-,MT-4,EC50,cytopathic effect / trypan blue,8.5 µM
Nc1nc2c(ncn2[C@H]2C=C[C@@H](CO)C2)c(=O)[nH]1,LAV,-,C3,EC50,p24,0.37 µM
COc1ccc(C(C)(C)CCCC(C)C)c(OC)c1,-,-,PBMC,EC50,p24 / ELISA / antigen,>200 µM
N[C@@H](CCC(=O)O)C(=O)N[C@@H](Cc1ccc(O)cc1)C(=O)O,IIIB,-,MT-2,EC50,cytopathic effect / neutral red,1.8 µg/mL
Cc1cn([C@H]2C=C[C@@H](COP(=O)(OCc3ccccc3)OCc3ccccc3)O2)c(=O)[nH]c1=O,IIIB,-,CEM + CEM/O,EC50,cytopathic effect / syncytia,1.57 µM
CC(C)CN(C[C@@H](O)[C@H](Cc1ccccc1)NC(=O)[C@H](CC(N)=O)NC(=O)c1ccc2ccccc2n1)C(=O)NC(C)(C)C,NL4-3,PR-L10R M46I L63P V82T,MT-4,EC95,p24,0.4 µM
CCCCN1C(=O)CCC1C(=O)OC[C@H]1O[C@@H](n2cc(C)c(=O)[nH]c2=O)C[C@@H]1N=[N+]=[N-],-,-,CEM + CME-SS,EC50,cytopathic effect / XTT,0.085 µM
CC(C)(C)NC(=O)[C@@H]1C[C@@H]2CCCC[C@@H]2CN1C[C@@H](O)[C@H](Cc1ccccc1)NC(=O)[C@H](CC(N)=O)NC(=O)c1ccc2ccccc2n1,NL4-3,PR-M46I L63P,MT-4,EC95,p24,0.025 µM
S=C(NCCC1=CCCCC1)Nc1ccccn1,IIIB,-,PBMC,EC50,-,0.03 µM
C#Cc1ccc(Nc2nccc(Oc3c(C)cc(-c4cn(Cc5ccc(C#N)cc5)nn4)cc3C)n2)cc1,IIIB,Y188L,MT-4,EC50,MTT,>7.18 µM
O=c1[nH]c(=O)n([C@@H]2CS[C@@H](CO)O2)cc1F,LAV,-,PBMC,EC50,RT activity,2.3 µM
C#Cc1ccc(Nc2nccc(Oc3c(C)cc(-c4cn(-c5ccc(C(=O)O)cc5)nn4)cc3C)n2)cc1,IIIB,F227L and V106A,MT-4,EC50,MTT,2.73 µM
Cc1ccc(-c2ccc3c(c2)C=C(C(=O)Nc2ccc(C[N+](C)(C)C4CCOCC4)cc2)CCC3)cc1,BaL,-,PBMC,EC50,p24,0.0136 µM
Nc1nc(N)c2ncn([C@H]3CC[C@@H](CO)O3)c2n1,LAV,-,C3,EC90,p24,26 µM
S=C(NCCC1=CCCCC1)Nc1ccc(Cl)cn1,IIIB,-,PBMC,EC50,-,0.003 µM
COC(=O)CC(OP(=O)(OC[C@@H]1C=C[C@H](n2cc(C)c(=O)[nH]c2=O)O1)OC(CC(=O)OC)c1ccccc1)c1ccccc1,IIIB,-,CEM + CEM/O,EC50,cytopathic effect / syncytia,5 µM
Oc1cc(O)cc(-c2c3nc(c(-c4cc(O)cc(O)c4)c4ccc([nH]4)c(-c4cc(O)cc(O)c4)c4nc(c(-c5cc(O)cc(O)c5)c5ccc2[nH]5)C=C4)C=C3)c1,LAV,-,PBMC,EC50,RT activity,>100 µM
CCOP(=O)(OC[C@H]1O[C@@H](n2cc(C)c(=O)[nH]c2=O)C[C@@H]1N=[N+]=[N-])C(=O)NCCc1ccccc1,GKV-4046,-,MT-4,EC90,p24,0.0022 µM
CCCCCCCCCCCCCC(=O)O[C@H]1CCC(NC(=O)[C@H](OC)[C@H](O)[C@@H](O)[C@H](O)/C=C/C(C)C)C(=O)NC1,NL4-3,-,CEM-GXR,EC50,GFP / reporter gene,0.015 µM
C#Cc1ccc(Nc2nccc(Oc3c(C)cc(-c4cn(CC(=O)Nc5ccc(S(C)(=O)=O)cc5)nn4)cc3C)n2)cc1,IIIB,Y188L,MT-4,EC50,MTT,>6.36 µM
Cc1cccc(C)c1CNC(=O)[C@H]1N(C(=O)[C@@H](O)C[C@@H](Cc2ccccc2)C(=O)N[C@H]2c3ccccc3C[C@H]2O)CSC1(C)C,-,PR-V18C,MT-4,EC50,p24,<0.031 µM
Cc1cn([C@H]2C[C@H](N=[N+]=[N-])[C@@H](COP(=O)(OC(C)C)C(N)=O)O2)c(=O)[nH]c1=O,GKV-4046,-,MT-4,EC50,p24,0.002 µM
NC(=O)c1cn([C@H]2CC[C@@H](CO)O2)c2ncnc(N)c12,IIIB,-,MT-4,EC50,cytopathic effect / trypan blue,64 µM
Nc1ccccc1-c1c2nc(c(-c3ccccc3N)c3ccc([nH]3)c(-c3ccccc3N)c3nc(c(-c4ccccc4N)c4ccc1[nH]4)C=C3)C=C2,LAV,-,PBMC,EC50,RT activity,18.3 µM
Cc1cn([C@H]2C[C@H](N=[N+]=[N-])[C@@H](COP(=O)(OCC(C)(C)C)C(N)=O)O2)c(=O)[nH]c1=O,GKV-4046,-,MT-4,EC50,p24,<0.0022 µM
Cc1cn([C@H]2C[C@H](N=[N+]=[N-])[C@@H](COC(=O)C3CN(C)C(=O)N3C)O2)c(=O)[nH]c1=O,-,-,CEM + CME-SS,EC50,cytopathic effect / XTT,0.1 µM
Oc1cccc(-c2c3nc(c(-c4cccc(O)c4)c4ccc([nH]4)c(-c4cccc(O)c4)c4nc(c(-c5cccc(O)c5)c5ccc2[nH]5)C=C4)C=C3)c1,LAV,-,PBMC,EC50,RT activity,5.4 µM
NC(=O)c1cn([C@H]2C=C[C@@H](CO)O2)c2ncnc(N)c12,IIIB,-,MT-4,EC50,cytopathic effect / trypan blue,>125 µM
Cc1cn([C@H]2C[C@H](N=[N+]=[N-])[C@@H](CO)O2)c(=O)[nH]c1=O,-,-,PBMC,EC50,p24,0.006 µM
C#Cc1ccc(Nc2nccc(Oc3c(C)cc(-c4cn(Cc5ccc([N+](=O)[O-])cc5)nn4)cc3C)n2)cc1,IIIB,K103N,MT-4,EC50,MTT,0.17 µM
COC1N(C2CC(N=[N+]=[N-])C(CO)O2)C(=O)NC(=O)C1(C)Br,-,-,PBMC,EC50,p24,0.006 µM
CC(C)(C)NC(=O)[C@@H]1CN(Cc2cc3cnccc3o2)CCN1C[C@@H](O)C[C@@H](Cc1ccccc1)C(=O)N[C@H]1c2ccccc2C[C@H]1O,IIIB,-,MT-4,EC50,p24,<0.006 µM
Nc1ccn([C@H]2CC[C@@H](CO)O2)c(=O)n1,IIIB,-,MT-4,EC50,cytopathic effect / MTT,0.18–0.26 µM
Cc1ccnc2c1NC(=O)c1cccnc1N2C1CC1,-,RT-Y188L,MT-4,EC50,cytopathic effect / MTT,>100 µM
CCOC(=O)CC1OP(=O)(OC[C@@H]2C=C[C@H](n3cc(C)c(=O)[nH]c3=O)O2)Oc2ccccc21,IIIB,-,CEM + CEM/O,EC50,cytopathic effect / syncytia,0.16 µM
CC(=O)O[C@@H]1CC[C@@]2(C)[C@H](CC[C@@H]3[C@@H]2CC[C@]2(C)[C@@H]([C@H](C)CCC(=O)OC[C@H]4O[C@@H](n5cc(C)c(=O)[nH]c5=O)C[C@@H]4N=[N+]=[N-])CC[C@@H]32)C1,-,-,CEM + CME-SS,EC50,cytopathic effect / XTT,0.089 µM
Nc1nc(=O)n([C@@H]2CS[C@@H](CO)O2)cc1Cl,LAV,-,PBMC,EC50,RT activity,100 µM
Cc1cn([C@H]2C=C[C@@H](CO)O2)c(=O)[nH]c1=O,IIIB,-,CEM + CEM/O,EC50,cytopathic effect / syncytia,0.33 µM
Oc1ccc(-c2c3nc(c(-c4ccc(O)cc4)c4ccc([nH]4)c(-c4ccc(O)cc4)c4nc(c(-c5ccc(O)cc5)c5ccc2[nH]5)C=C4)C=C3)cc1,LAV,-,PBMC,EC50,RT activity,0.8 µM
C#Cc1ccc(Nc2nccc(Oc3c(C)cc(-c4cn(CCCC(=O)OC)nn4)cc3C)n2)cc1,IIIB,E138K,MT-4,EC50,MTT,1.68 µM
Nc1ccn([C@H]2CC[C@@H](CO)O2)c(=O)n1,-,-,PBM,EC50,p24 / ELISA / antigen,0.0028 µM
C#Cc1ccc(Nc2nccc(Oc3c(C)cc(-c4cn(-c5cccc(C(=O)OC)c5)nn4)cc3C)n2)cc1,IIIB,E138K,MT-4,EC50,MTT,0.1 µM
Cc1cn([C@@H]2CS[C@@H](CO)O2)c(=O)nc1N,LAV,-,PBMC,EC50,RT activity,100 µM
CCOC(=O)P(=O)(OC[C@H]1O[C@@H](n2cc(C)c(=O)[nH]c2=O)C[C@@H]1N=[N+]=[N-])OC12CC3CC(CC(C3)C1)C2,GKV-4046,-,MT-4,EC50,p24,0.6 µM

The first 4 rows once more:

SMILES,strain or isolate,changes,cells,measure,read by,result
CC(C)(C)NC(=O)[C@@H]1CN(Cc2nc3ccccc3[nH]2)CCN1C[C@@H](O)C[C@@H](Cc1ccccc1)C(=O)N[C@H]1c2ccccc2C[C@H]1O,IIIB,-,MT-4,EC50,p24,<0.2 µM
C1=Cc2nc1c(-c1ccc(-n3cccc3)cc1)c1ccc([nH]1)c(-c1ccc(-n3cccc3)cc1)c1nc(c(-c3ccc(-n4cccc4)cc3)c3ccc([nH]3)c2-c2ccc(-n3cccc3)cc2)C=C1,LAV,-,PBMC,EC50,RT activity,7.3 µM
S=C(NCCc1ccccn1)Nc1ccc(Br)cn1,IIIB,-,PBMC,EC50,-,0.007 µM
CCCOP(=O)(OC[C@H]1O[C@@H](n2cc(C)c(=O)[nH]c2=O)C[C@@H]1N=[N+]=[N-])C(N)=O,GKV-4046,-,MT-4,EC90,p24,0.0288 µM